{"source": "patent US7138231B2", "about": "(priority 2000, dated 2006)", "tested_on": "HIV-1 protease site-directed mutants (N88S, L63P, V77I, M46L) in resistance test vector", "assay": "Phenotypic susceptibility assay of resistance test vectors with site-directed mutations in PR"}
{"smiles": "CC(C)(C)NC(=O)[C@@H]1C[C@@H]2CCCC[C@@H]2CN1C[C@@H](O)[C@H](Cc1ccccc1)NC(=O)[C@H](CC(N)=O)NC(=O)c1ccc2ccccc2n1", "note": "[saquinavir]", "values": [{"measurement": "Fold Change vs. Reference", "setting": "site-directed mutations L63P, V77I", "result": 1.24, "unit": "fold"}, {"measurement": "Fold Change vs. Reference", "setting": "site-directed mutations L63P, V77I, N88S", "result": 1.24, "unit": "fold"}, {"measurement": "Fold Change vs. Reference", "setting": "site-directed mutations M46L, L63P, N88S", "result": 1.15, "unit": "fold"}]}
